As a reminder, the Kd is a measure of binding affinity in units of concentration. Broadly, the koff is the first-order rate constant of dissociation. What is called kon is the rate constant with which the complex forms.

For assay [1], the target named is T1, SARS-CoV-2 RBD 501Y (UK, B.1.1.7), purified recombinant (SARS-CoV-2).
T1 construct: range […]
In words: SPR, decoy-Fc captured on protein A/G chip, RBD injected, 1:1 fit. For orientation: Surface plasmon resonance follows binding to a sensor surface in real time, without labels.

In assay [2] the target is T2, SARS-CoV-2 RBD 417N/484K/501Y (South Africa, B.1.351), purified recombinant (SARS-CoV-2).
T2 construct: range […]
The description is as above.

B1: ACE2-wt-Fc4 (Fc fusion)
chain: not shown
As for B1, in assay [1], the Kd amounted to 3.3 nM, the koff was found to be 0.00207 s⁻¹ and the kon is 626000 M⁻¹ s⁻¹. In addition, in assay [2], the off-rate (koff) came out at 0.00537 s⁻¹ and the kon was 439000 M⁻¹ s⁻¹.
